The target of this experiment is SARS-CoV-2 wild-type RBD (SARS-CoV-2) (UniProt P0DTC2). Description: BLI.

Broadly, the Kd is the constant that tells how readily two partners part at equilibrium. As usually defined, the koff is a measure of how fast the partners let go of each other. High values mean a short-lived complex, low ones a long-lived complex.

With LY-CoV016, the dissociation constant (Kd) is 3.27 nM and the dissociation rate constant (koff) amounted to 0.00291 s⁻¹.

These data come from article PMC8866119.
